Pooled drug test results. Numbers come from NIAID ChemDB, via PubChem.

Common to all: tests in culture; agent: Mycobacterium tuberculosis

A number after MIC or MFC names an inhibition level or a share of isolates. ECn is the concentration giving n% inhibition of infection, replication or growth. Two numbers with a dash give a range or band. Conditions beyond the fields shown may differ between rows. MIC bound comes from a single tested concentration. Percent inhibition refers to the dose given; in toxicity tests it is the harm to the cells. Blank or dashed fields: not listed here.

structure | dose | cells | mutations | read by | setting | endpoint | strain or isolate | value
CCC1CCC2(CC1)SC(C)C(=O)N2NC(=O)Cc1csc2nc(-c3ccc(Cl)cc3)cn12 |  | VERO |  |  |  | EC50 | H37Rv | <6.25 µg/mL
O=C(NCN1CCCC1)c1cnccn1 |  |  |  |  |  | MIC | ATCC35801 | 8 µg/mL
O=C(Cc1csc2nc(-c3ccccc3)cn12)NN=C1CCCCC1 | 6.25 µg/mL |  |  |  |  | inhibition | H37Rv | 47%
CC(=O)n1cc(/C=C2\N=C(c3ccccc3)OC2=O)c2ccccc21 | 6.25 µg/mL |  |  | BACTEC |  | inhibition | H37Rv | 71%
Oc1ccccc1CNCCCCCCCNCc1ccccc1O |  |  |  |  |  | MIC | Sensitive strains | 25 µg/mL
CCN(C(=O)COc1cc2c(O)c3c(O)c(C)c4c(c13)C(=O)[C@@](C)(O/C=C/[C@H](OC)[C@@H](C)[C@@H](OC(C)=O)[C@H](C)[C@H](O)[C@H](C)[C@@H](O)[C@@H](C)/C=C/C=C(/C)C(=O)N2)O4)c1ccccc1 |  |  |  |  |  | MIC | H37Rv | 0.18 µg/mL
Cc1ccc(-c2nc3cc(C(C)(C)C)cc(C(C)(C)C)c3o2)o1 | 6.25 µg/mL |  |  | BACTEC |  | inhibition | H37Rv | <90%
CCCN(CCC)CNC(=O)c1cnc(C)cn1 |  |  |  |  |  | MIC | PZA-resistant | 100 µg/mL
CC1CN(c2c(F)cc3c(=O)c(C(=O)O)cn4c3c2OC[C@@H]4C)CC(C)O1 |  |  |  | agar |  | MIC99 | MDR-TB | 8.3 µM
Cc1c(N2CC3CCCNC3C2)c(F)cc2c(=O)c(C(=O)O)cn([C@@H]3C[C@@H]3F)c12 |  |  |  |  |  | MIC | 71 (RFP-resistant) | 0.05 µg/mL
CCOC(=O)Nc1cc2[nH]c(-c3ccc(OC)cc3)nc2c(N)n1 |  |  |  |  |  | EC50 | H37Rv | >12.5 µg/mL
CO[C@H]1/C=C/O[C@@]2(C)Oc3c(C)c(O)c4c(O)c(c(/C=N/N5CCN(C)CC5)c(O)c4c3C2=O)NC(=O)/C(C)=C\C=C\[C@H](C)[C@H](O)[C@@H](C)[C@@H](O)[C@@H](C)[C@H](OC(C)=O)[C@@H]1C |  |  | Rifampicin- isoniazid- moxifloxacin-resistant | broth dilution |  | MIC | Clinical isolate 6134 | >10 µM
CC1CCCC2(C1)SCC(=O)N2NC(=O)Cc1csc2nc(-c3ccccc3)cn12.O | 6.25 µg/mL |  |  |  |  | inhibition | H37Rv | 65%
CC1COc2c(N3CCN(C(c4ccccc4)c4ccc(Cl)cc4)CC3)c(F)c([N+](=O)[O-])c3c(=O)c(C(=O)O)cn1c23 |  |  |  | agar |  | MIC | MDR-TB | 2.63 µM
CO[C@H]1/C=C/O[C@@]2(C)Oc3c(C)c(O)c4c(O)c(cc(O)c4c3C2=O)NC(=O)/C(C)=C\C=C\[C@H](C)[C@H](O)[C@@H](C)[C@@H](O)[C@@H](C)[C@H](OC(C)=O)[C@@H]1C |  |  |  |  |  | MIC | H37Rv | 0.05 µg/mL
CCC1CN(c2c(F)cc3c(=O)c(C(=O)O)cn([C@@H]4C[C@@H]4F)c3c2OC)CCN1 |  |  |  |  |  | MIC | 71 (RFP-resistant) | 1 µg/mL
CCCCCCCCNCc1ccncc1 |  |  |  |  |  | MIC | H37Ra | <25 µg/mL
CC1CCCC2(C1)SC(C)C(=O)N2NC(=O)Cc1csc2nc(-c3ccccc3)cn12.O |  |  |  |  |  | MIC | H37Rv | <6.25 µg/mL
CO[C@H]1/C=C/O[C@@]2(C)Oc3c(C)c(O)c4c(O)c(cc(OCC(=O)N5CCCCCC5)c4c3C2=O)NC(=O)/C(C)=C\C=C\[C@H](C)[C@H](O)[C@@H](C)[C@@H](O)[C@@H](C)[C@H](OC(C)=O)[C@@H]1C |  |  |  |  |  | MIC | H37Rv | 0.09 µg/mL
CCOC(=O)Nc1cc(NC(c2ccccc2)c2ccccc2)c2nc(-c3ccc(Cl)cc3)cnc2n1 | 12.5 µg/mL |  |  |  |  | inhibition | H37Rv | 0%
O=c1c2oc3ccccc3oc=2c(=O)c2ccccc12 | 12.5 µg/mL |  |  | BACTEC |  | inhibition | H37Rv | 8%
CCOC(=O)Nc1cc2c([nH]c(=S)n2/N=C/c2ccccc2)c(N)n1 |  |  |  |  |  | EC50 | H37Rv | >12.5 µg/mL
NNC(=O)c1ccncc1 |  |  |  | broth dilution |  | MIC | H37Rv | ≤0.2 µM
CCOC(=O)Nc1cc(N)c([N+](=O)[O-])c(NC/C(CNc2ccc(C(=O)OCC)cc2)=N\O)n1 |  |  |  |  |  | EC50 | H37Rv | >12.5 µg/mL
Cc1ccc2ccccc2c1CC(=O)NN |  |  |  | BACTEC |  | MIC | H37Rv | ≥12.5 µg/mL
CO/C(C)=C1/NC(=O)[C@H]([C@@H](C)O)NC(=O)c2csc(n2)-c2cc(O)c(-c3nc(C(=O)NC(C)c4nc(-c5ccccn5)ns4)cs3)nc2-c2csc(n2)[C@@H]2COC(=O)c3c4c5c(cccc5n3O)COC(=O)[C@@H](O[C@H]3C[C@](C)(O)[C@H](N(C)C)[C@H](C)O3)[C@@H](OC4)[C@H](NC(=O)c3csc1n3)c1nc(cs1)C(=O)N2 |  |  | Multidrug-resistant | broth dilution |  | MIC | Clinical isolate 565 | ≤10 µM
Cc1nc2nc(S(=O)(=O)Nc3c(Br)ccc4cccnc34)nn2c2c1CCC2 |  |  | INH RIF resistant | visual reading |  | MIC50 | X59 | 2 µM
COc1cc2nn(-c3ccccc3N)nc2cc1OC | 12.5 µg/mL |  |  | BACTEC |  | inhibition | H37Rv | -6%
CCOC(=O)CC(c1cccc([N+](=O)[O-])c1)N1CCCC1 |  |  |  |  |  | MIC | H37Ra | >25 µg/mL
CO/N=C(\C)c1cccc(F)c1NS(=O)(=O)c1nc2c(F)cnc(OC)n2n1 |  |  | INH RIF resistant | visual reading |  | MIC50 | P887 | 1 µM
NC(=O)c1cncc(-n2ccnc2)n1 |  |  |  |  |  | MIC | H37Rv | 1000 µg/mL
CC1SC2(CCCCC2)N(NC(=O)Cc2csc3nc(-c4ccc(Cl)cc4)cn23)C1=O |  |  |  |  |  | EC50 | H37Rv | <6.25 µg/mL
COc1ccc(/C=C/C(=O)c2c(O)cc(C)oc2=O)cc1OC |  |  |  | BACTEC |  | MIC bound | H37Rv | >12.5 µg/mL
NC(=O)c1cnccn1 | 800 µg/mL |  |  |  | 7 d | inhibition | TB206 | 84.4%
CCCCCCc1cc(C(=O)NN)c2ccccc2n1 | 12.5 µg/mL |  |  | BACTEC |  | inhibition | H37Rv | 15%
COc1cc2c(cc1OC)CN(c1c(F)cc3c(=O)c(C(=O)O)cn4c3c1OCC4C)CC2 |  |  |  | agar |  | MIC99 |  | 1.72 µM
CCOC(=O)c1[nH]c(-c2[nH]c(-c3[nH]c(-c4[nH]c(C(=O)OCC)c(C)c4C(=O)OCC)c(C(=O)OCC)c3C)c(C)c2C(=O)OCC)c(C(=O)OCC)c1C | 12.5 µg/mL |  |  | BACTEC |  | inhibition | H37Rv | 0%
O=C(Cc1csc2nc(-c3ccc(Cl)cc3)cn12)NN=C1CCCC1 |  |  |  |  |  | MIC | H37Rv | <6.25 µg/mL
Cc1c(N2CC3CCCNC3C2)c(F)cc2c(=O)c(C(=O)O)cn(C3CC3)c12 |  |  |  |  |  | MIC | 56 (RFP-resistant) | 3.13 µg/mL
CCOC(=O)C1=C(C(=O)c2cccc3ccccc23)C(c2ccc([N+](=O)[O-])cc2)C(C(=O)c2cccc3ccccc23)=C(C(=O)OCC)N1 | 12.5 µg/mL |  |  | BACTEC |  | inhibition | H37Rv | 26%
CC(C)(C)c1cc(C(C)(C)C)c2oc(-c3ccc(C(F)(F)F)cc3)nc2c1 | 6.25 µg/mL |  |  | BACTEC |  | inhibition | H37Rv | <90%
O=C1OC(=O)C2C3(CC3)CC23CC13 | 12.5 µg/mL |  |  | BACTEC |  | inhibition | H37Rv | -5%
CCCCCCCCC=CCCCCCCCCNCc1ccc(F)cc1 |  |  |  |  |  | MIC | H37Ra | >25 µg/mL
C[C@H]1COc2c(N3CCC4(CC3)OCCO4)c(F)cc3c(=O)c(C(=O)O)cn1c23 |  |  |  | agar |  | MIC99 |  | 0.47 µM
CC[C@]1(O)C[C@H]2CN(CCC3=C(NC4CC=CC=C34)[C@@](C(=O)OC)(c3cc4c(cc3OC)N(C)[C@@H]3[C@]45CCN4CC=C[C@@](CC)(C(OC(=O)CCCCCCCCCCCN6C(=O)C=CC6=O)[C@]3(O)C(=O)OC)[C@H]45)C2)C1 | 12.5 µg/mL |  |  | BACTEC |  | inhibition | H37Rv | 9%
CCOC(=O)Nc1cc(NC(O)/C(=C/O)c2cccc([N+](=O)[O-])c2)c([N+](=O)[O-])c(N)n1 | 12.5 µg/mL |  |  |  |  | inhibition | H37Rv | 4%
[N-]=[N+]=CC(=O)NCC(=O)NN | 12.5 µg/mL |  |  | BACTEC |  | inhibition | H37Rv | -17%
CN(CNC(=O)c1cnccn1)Cc1ccccc1 |  |  |  |  |  | MIC | MS6210 | 33 µg/mL
NC(CCOCCP(=O)(O)CCC1C=CC=CC1)C(=O)O |  |  |  | BACTEC |  | MIC bound | H37Rv | >12.5 µg/mL
CC(C)(C)c1cc(C(C)(C)C)c2oc(-c3ccccn3)nc2c1 |  |  |  |  |  | MIC | H37Rv | 64 µg/mL
O=C(Nc1ccccc1)OCc1nc2c([nH]1)C(=O)C=CC2=O | 12.5 µg/mL |  |  | BACTEC |  | inhibition | H37Rv | 0%
Oc1ccccc1CNCCCCCCCCCCCCNCc1ccccc1O |  |  |  |  |  | MIC | H37Ra | <25 µg/mL
C[C@H]1COc2c(N3CCC(O)(c4ccc(Cl)cc4)CC3)c(F)cc3c(=O)c(C(=O)O)cn1c23 |  |  |  | agar |  | MIC99 |  | 6.62 µM
O=C(Cc1csc2nc(-c3ccc(Cl)cc3)cn12)NN1C(=O)CSC12CCCCC2 |  |  |  |  |  | MIC | H37Rv | >6.25 µg/mL
CCCN(CCC)CNC(=O)c1cnccn1 |  |  |  |  |  | MIC | MS6210 | 100 µg/mL
CCC(C)C(NC(=O)C1CCCN1C(=O)OCc1ccccc1)C(=O)O |  |  |  | BACTEC |  | MIC bound | H37Rv | >12.5 µg/mL
CC(C)(C)c1cc(C(C)(C)C)c2oc(-c3ccccc3Br)nc2c1 |  |  |  |  |  | MIC | H37Rv | >128 µg/mL
CCOC(OCC)c1ccc(-n2c(N)c(C#N)cnc2=S)c2c1OC2=NC=C(C#N)C#N |  |  |  | BACTEC |  | MIC bound | H37Rv | >12.5 µg/mL
C=C(NC(=O)c1csc(-c2nc3c(cc2O)-c2nc(cs2)C(=O)N[C@@H]([C@@H](C)O)C(=O)N/C(=C(\C)OC)c2nc(cs2)C(=O)N[C@@H]2c4nc(cs4)C(=O)N[C@@H](COC(=O)c4c5c6c(cccc6n4O)COC(=O)[C@@H](O[C@H]4C[C@]6(C)OCN(C)[C@@H]6[C@H](C)O4)[C@H]2OC5)c2nc-3cs2)n1)C(N)=O |  |  |  | broth dilution |  | MIC | Clinical Isolate 913 | 10–100 µM
N#Cc1cncc(-n2cncn2)n1 |  |  |  |  |  | MIC | SP 607 | 500 µg/mL
CC1(O)/C=C\C=C(\CO)C2CC(C)(C)C2(O)CC1 |  |  |  | BACTEC |  | MIC | H37Rv | ≥12.5 µg/mL
CCCCCCCCC=CCCCCCCCCNCc1ccccc1O |  |  |  |  |  | MIC | Clinical isolates MDR | 3.12 µg/mL
CC(C)NC(=O)c1cc(NC(=O)c2ccc(C(=O)Nc3cc(C(=O)NC(C)C)cc(C4=NCCN4)c3)cc2)cc(C2=NCCN2)c1 | 6.25 µg/mL |  |  | resazurin |  | inhibition | H37Rv | 69%
C=C(NC(=O)c1csc(-c2nc3c(cc2O)-c2nc(cs2)C(=O)N[C@@H]([C@@H](C)O)C(=O)N/C(=C(\C)OC)c2nc(cs2)C(=O)N[C@@H]2c4nc(cs4)C(=O)N[C@@H](COC(=O)c4c5c6c(cccc6n4O)COC(=O)[C@@H](O[C@H]4C[C@](C)(O)[C@H](N(C)C)[C@H](C)O4)[C@H]2OC5)c2nc-3cs2)n1)C(N)=O |  |  | Rifampicin- and isoniazid-resistant | broth dilution |  | MIC | Clinical isolate 15552 | ≤2.5 µM
NS(=O)(=O)c1ccc(CNC(=O)c2ccc(C(=O)NCc3ccc(S(N)(=O)=O)cc3)cc2)cc1 |  |  |  |  |  | MIC bound | H37Rv | >6.25 µg/mL
CC1CCCCN1c1cncc(C(=O)NO)n1 |  |  |  |  |  | MIC | Ethionamide-resistant | 122 µg/mL
COc1ccc(CC(NC(=O)OCc2ccccc2)C(=O)NC2C(CO)OC(n3cnc4c(N)ncnc43)C2O)cc1 | 12.5 µg/mL |  |  | BACTEC |  | inhibition | H37Rv | -17%
NC(=O)c1cncc(-n2cncn2)n1 |  |  |  |  |  | MIC | Capreomycin-resistant | 2000 µg/mL
CCOC(=O)c1c(NCCO)c(-c2ccccc2)c(=O)n2c1[nH]c1ccccc12 |  |  |  | BACTEC |  | MIC bound | H37Rv | >12.5 µg/mL
CO[C@H]1/C=C/O[C@@]2(C)Oc3c(C)c(O)c4c(O)c(c(/C=N/N5CCN(C)CC5)c(O)c4c3C2=O)NC(=O)/C(C)=C\C=C\[C@H](C)[C@H](O)[C@@H](C)[C@@H](O)[C@@H](C)[C@H](OC(C)=O)[C@@H]1C |  |  |  |  |  | MIC | TN1916 | >32 µg/mL
O=C(NCN1CCNCC1)c1cnccn1 |  |  |  |  |  | MIC | ATCC 35828 | 100 µg/mL
CC1CCC(=NNC(=O)Cc2csc3nc(-c4ccc(Cl)cc4)cn23)CC1 | 6.25 µg/mL |  |  |  |  | inhibition | H37Rv | 4%
CCCCCCCCNC(CCO)c1cccc(Cl)c1 |  |  |  |  |  | MIC | Sensitive strains | 12.5 µg/mL
O.O=C(Cc1csc2nc(-c3ccccc3)cn12)NN1C(=O)CSC12CCCCC2 | 6.25 µg/mL | VERO |  |  |  | inhibition | H37Rv | 96%
CO[C@H]1/C=C/O[C@@]2(C)Oc3c(C)c(O)c4c(O)c(cc(OCC(=O)Nc5ccccc5)c4c3C2=O)NC(=O)/C(C)=C\C=C\[C@H](C)[C@H](O)[C@@H](C)[C@@H](O)[C@@H](C)[C@H](OC(C)=O)[C@@H]1C |  |  |  |  |  | MIC | H37Rv | 0.01 µg/mL